Test system: antibody reactive to C-35 peptide
Test: Double-blind study of the antibody reactive to C-35 peptide in 156 cases (ELISA)
Assay type: binding, human
Conditions: cutoff mean±3 SD, listed as C-35

Question: YLLPRRGPRL [No. 40] was tested. Which “Sensitivity (detection rate) of the antibody reactive to the peptide” value did it give?
Answer: 93.3%

Question: What about the “Sensitivity (second line of Table 2; HCV specificity in the text)” value of the same sequence?
Answer: 88.5%
